A mixed list of measured activities; the numbers were collected in NIAID ChemDB.

Common to all: whole-cell or culture tests; agent: Plasmodium falciparum; measure: EC50

Conditions beyond the fields shown may differ between rows. Blank or dashed fields: not listed here. ECn is the concentration giving n% inhibition of infection, replication or growth.

structure | strain or isolate | mutations | cell line | method | setting | result
c1ccc(CC[C@@H]2C[C@@H]3CCC[C@@H]4C[C@H](CCc5ccccc5)NC(=N2)N43)cc1 | D6 |  |  | LDH |  | 6.2 µM
CN1CCN(CCCN2CC3(N4CCCCC4)CC(c4ccccc4)C2C(c2ccccc2)C3)CC1 | K1 |  | human red blood cells |  |  | 0.11 µM
CC[C@H]1OC(=O)[C@H](C)[C@@H](OC2C[C@@](C)(OC)[C@@H](O)[C@H](C)O2)[C@H](C)[C@@H](OC2O[C@H](C)C[C@H](N(C)C)[C@H]2O)[C@](C)(OC2C[C@@H](N(C)C)[C@@H](O)[C@H](C)O2)C[C@@H](C)C(=O)[C@H](C)[C@@H](O)[C@]1(C)O | 3D7 |  | RBC | fluorescence | 120 h | 10.1 µM
N#Cc1nc2c(-c3nc4ccccc4[nH]3)c(N)n(CCCN3CCOCC3)c2nc1C#N | NF54 |  | Erythrocytes | hypoxanthine uptake / radiometric |  | 0.28 µM
CC(C)CCCC1CC2CCC3CC(C)NC(=N1)N23 | W2 |  |  | LDH |  | 3.53 µM
CC1=C2Cc3cc(ccc3O)C(=O)O[C@H](C(C)(C)O)CC[C@]3(C)O[C@H]3C/C=C(\C)[C@@H]2CC1 | 3D7 MR4/ATCC |  | Human O+ erythrocytes | SYBR Green |  | >100 µM
CC(C)C1=C(O)c2ccccc2C(=O)C1=O | 3D7 |  | Erythrocytes | flow cytometry |  | 15.2 µM
CC(C)CCC[C@@H]1C[C@@H]2CC[C@@H]3C[C@H](CCCC(C)C)NC(=N1)N32 | W2 |  |  | LDH |  | 2.7 µM
COc1cc(C(=O)O)ccc1OC1CC(O)C(O)C(COC(=O)/C=C/c2ccccc2)O1 | 3D7 |  | Erythrocytes |  |  | >25 µM
CCN(CC)CCCC(C)n1c(N)c(-c2nc3ccccc3n2C)c2nc(C#N)c(C#N)nc21 | NF54 |  | Erythrocytes | hypoxanthine uptake / radiometric |  | 0.34 µM
Cc1cccc(CC[C@H]2C[C@H]3CC[C@H]4C[C@@H](CCc5cccc(C)c5)NC(=N2)N34)c1 | W2 |  |  | LDH |  | 4.98 µM
CCN(CC)CCCC(C)Nc1ccnc2cc(Cl)ccc12 | Dd2 |  | RBC | MTT / LDH |  | 0.34 µM
N#Cc1nc2c(-c3nc4ccccc4[nH]3)c(N)n(CCCn3ccnc3)c2nc1C#N | NF54 |  | Erythrocytes | hypoxanthine uptake / radiometric |  | 0.3 µM
CN1CCN(CC(=O)NC2CC3(N4CCCCC4)CC(c4ccccc4)C2C(c2ccccc2)C3)CC1 | K1 |  | human red blood cells |  |  | 0.38 µM
CC(C)CC(=O)O[C@@H]1[C@@H](OC(=O)CC(C)C)[C@H](O[C@]2(CO)O[C@H](CO)[C@@H](OC(=O)CC(C)C)[C@@H]2OC(=O)CC(C)C)O[C@H](CO)[C@H]1OC(=O)CC(C)C | Dd2 |  | Red blood cells | SYBR Green |  | 1.495 µg/mL
C#CCCC1CC2CCC3CC(C)NC(=N1)N23 | D6 |  |  | LDH |  | 20.6 µM
CC(=O)OC(C)(C)CCC(=O)[C@](C)(O)C1[C@H](O)C[C@@]2(C)C3CC=C4C(O[C@H](OC5OC(CO)C(O)C(O)C5O)[C@H](O)C4(C)C)[C@]3(C)CC[C@]12C | 3D7 |  | Erythrocytes |  |  | >25 µM
Cn1nc(C(F)(F)F)c(-c2ccc(Br)cc2)c1NC(=O)Nc1ccc(F)cc1F | Dd2 (CM1) | Multidrug-resistant |  | SYBR Green / fluorescence |  | 0.151 µM
CC1CC2CCC3CC(CCc4ccc(F)cc4)N=C(N1)N32 | D6 |  |  | LDH |  | 15.76 µM
CC[C@H]1OC(=O)[C@H](C)[C@@H](OC2C[C@@](C)(OC)[C@@H](O)[C@H](C)O2)[C@H](C)[C@@H](OC2O[C@H](C)C[C@H](N(C)C)[C@H]2O)[C@](C)(OC2C[C@@H](N(C)C)[C@@H](O)[C@H](C)O2)C[C@@H](C)CN(C)[C@H](C)[C@@H](O)[C@]1(C)O | 3D7AziR |  | RBC | fluorescence | 120 h | 0.21 µM
C=C1CC[C@H](Br)[C@@]2(C)CCC(Br)[C@@](C)(O)CCC(O)C(C)(C)OC(=O)c3ccc(O)c(c3)C[C@H]12 | 3D7 MR4/ATCC |  | Human O+ erythrocytes | SYBR Green |  | 2.5 µM
CCN(CC)CCCC(C)Nc1ccnc2cc(Cl)ccc12 | D10 |  | Human dermal fibroblasts | MTT |  | 0.009 µg/mL
Cc1[nH]c(C)c(Cl)c(=O)c1Cl | W2 |  | RBC | flow cytometry |  | 9.73 µM
CC1=C2Cc3cc(ccc3O)C(=O)O[C@H](C(C)(C)O)CC[C@](C)(O)[C@H](Br)CC[C@]2(C)[C@@H](Br)CC1 | 3D7 MR4/ATCC |  | Human O+ erythrocytes | SYBR Green |  | 56 µM
CC(C)CCCC1CC2CCCC3CC(C)NC(=N1)N23 | W2 |  |  | LDH |  | 7.22 µM
CCN(CC)CCCC(C)Nc1ccnc2cc(Cl)ccc12 | 3D7 |  | human red blood cells | LDH / absorbance |  | 0.05 µM
C=C1CC[C@H](Br)[C@@]2(C)CCC(Br)[C@@](C)(O)CCC(Br)C(C)(C)OC(=O)c3ccc(O)c(c3)C[C@H]12 | 3D7 MR4/ATCC |  | Human O+ erythrocytes | SYBR Green |  | 0.9 µM
CCCCCC | W2 | CQ-resistant | Human dermal fibroblasts | MTT |  | 30 µg/mL
COc1ccc(C2=C(O)c3ccccc3C(=O)C2=O)cc1 | 3D7 |  | Erythrocytes | flow cytometry |  | 16 µM
C[C@H]1[C@@H](O)O[C@@H]2OC3(C)CC[C@H]4[C@H](C)CC[C@@H]1[C@@]24OO3 | 3D7 |  | Human A+/O+ erythrocytes | LDH / absorbance |  | 0.01 µg/mL
NCCSC[C@H](N)C(=O)N(O)C1C[C@@H](C(N)=O)N(C(=O)c2ccc3nc(-c4ccccc4Br)[nH]c3c2)C1 | 3D7 |  | Red blood cells | flow cytometry | 96 h | 84.7 µM
CN1CCN(CCC(=O)NC2CC3(N4CCCCC4)CC(c4ccccc4)C2C(c2ccccc2)C3)CC1 | K1 |  | human red blood cells |  |  | 0.28 µM
C=C1CC[C@H](Br)[C@@]2(C)CC[C@@H]3O[C@@]3(C)CC[C@@H](C(C)(C)O)OC(=O)c3ccc(O)c(c3)C[C@H]12 | 3D7 MR4/ATCC |  | Human O+ erythrocytes | SYBR Green |  | 18 µM
C[C@H]1Cc2c([nH]c3cc(Cl)c(F)cc23)[C@@]2(N1)C(=O)Nc1ccc(Cl)cc12 | Dd2 (EF1) | Multidrug-resistant |  | SYBR Green / fluorescence |  | 0.00069 µM
CN1CCN(CC(=O)NC2CC3(N4CCN(C)CC4)CC(c4ccccc4)C2C(c2ccccc2)C3)CC1 | K1 |  | human red blood cells |  |  | 0.62 µM
CC1CC2CCC3CC(CCc4cccc(Cl)c4)N=C(N1)N32 | D6 |  |  | LDH |  | 10.09 µM
C[C@H]1Cc2c([nH]c3cc(F)c(F)cc23)[C@@]2(N1)C(=O)Nc1ccc(Cl)cc12 | Dd2 (EF1) | Multidrug-resistant |  | SYBR Green / fluorescence |  | 0.000428 µM

Again, the opening 3 rows:

structure	strain or isolate	mutations	cell line	method	setting	result
c1ccc(CC[C@@H]2C[C@@H]3CCC[C@@H]4C[C@H](CCc5ccccc5)NC(=N2)N43)cc1	D6			LDH		6.2 µM
CN1CCN(CCCN2CC3(N4CCCCC4)CC(c4ccccc4)C2C(c2ccccc2)C3)CC1	K1		human red blood cells			0.11 µM
CC[C@H]1OC(=O)[C@H](C)[C@@H](OC2C[C@@](C)(OC)[C@@H](O)[C@H](C)O2)[C@H](C)[C@@H](OC2O[C@H](C)C[C@H](N(C)C)[C@H]2O)[C@](C)(OC2C[C@@H](N(C)C)[C@@H](O)[C@H](C)O2)C[C@@H](C)C(=O)[C@H](C)[C@@H](O)[C@]1(C)O	3D7		RBC	fluorescence	120 h	10.1 µM